Record: PubChem BioAssay AID624099 (ICCB-Longwood, 2012)
Aim: 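Human genes that papillomavirus E2 requires to repress the HPV18 LCR promoter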 (primary screen). Cells: human C33A cervical carcinoma cells (HPV-negative) stably expressing BPV1 E2 and an HPV18 LCR luciferase reporter. Reagents: siRNA pool against human genes, 40 nM. Time to read-out: 72 h. Measured: 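HPV18 LCR reporter light per well, converted to plate-wise z-scores that exclude control wells, and averaged over triplicate plates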. Direction: mean z-score and z-score: higher = stronger reporter signal, weaker E2 silencing. Rule for the call: 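Mean z ≥ 2 together with z ≥ 2 in two or more of the three replicates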.
This is an unselected part of about 21,000 reagents tested. Of all reagents, 497 (2.4%) were called active. 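Higher z means weaker E2 silencing; only reporter increases were scored, and knock-downs that hurt cell survival may mask genuine repressor factors.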 A number with no mark means an inactive call. Reagent sequences are not shown.

gene	mean z-score	z-score, replicate A	z-score, replicate B	z-score, replicate C
CACNA2D1	-0.08	0.17	-0.19	-0.23
LOC401068 (retired record)	-0.47	-0.36	-0.55	-0.49
TMEM100	-0.11	-0.3	-0.52	0.49
VAV1	-0.35	-0.06	-0.56	-0.42
EMP1	0.41	0.5	0.61	0.12
TYMP	1.24	1.01	1.2	1.52
GOLT1B	-0.08	-0.21	-0.31	0.27
RAB22A	0.04	0.21	0.13	-0.22
CNTN5	-0.36	-0.3	-0.32	-0.46
MNS1	0.64	0.42	0.86	
CCDC112	0.33	1.17	-0.08	-0.09
TPK1	-1.17	-1.27	-1.27	-0.98
SMPX	-0.17	-0.45	-0.08	0.01
LOC339539	-0.56	-0.35	-0.62	-0.71
SLC22A16	0.52	0.88	0.4	0.28
OR5AK2	-0.07	-0.3	0	0.08
DKFZp451B082	-0.73	-0.79	-0.52	-0.87
LRWD1	0.14	0	0.3	0.12
HDAC10	-0.16	-0.23	-0.13	-0.12
SLC22A9	1.1	1.01	0.98	1.31
TNFAIP3	-0.94	-1.13	-0.72	-0.97
FNDC3A	-0.92	-0.43	-0.96	-1.37

Next part (3 carried over from the part before).
gene	mean z-score	z-score, replicate A	z-score, replicate B	z-score, replicate C
SLC22A9	1.1	1.01	0.98	1.31
TNFAIP3	-0.94	-1.13	-0.72	-0.97
FNDC3A	-0.92	-0.43	-0.96	-1.37
ADAM18	-1.61	-1.56	-1.68	-1.6
LOC346887 (retired record)	0.51	0.11	0.52	0.9
GP9	-0.77	-0.31	-1.14	-0.87
CLEC4F	-0.59	-0.54	-0.5	-0.74
PSG1	0.43	0.33	0.38	0.6
TRIM44	0.7	0.14	0.76	1.2
MRPS28	-0.33	-0.14	-0.24	-0.63
TNNI3K	0.47	-0.49	1.02	0.89
MTG2	-0.6	-0.63	-0.59	-0.57
ZDHHC8	1.38	1.99	1.32	0.84
ALG3	-1.08	-0.93	-1.37	-0.92
LOC400701 (retired record)	1.19	1.38	0.86	1.33
HSP90B1	0.88	0.96	0.83	0.86
PKD1L1-AS1	1.04	0.98	1.01	1.14
PPP1R9B	-0.56	-0.55	-0.47	-0.67
KERA	-2.96	-3.03	-3.03	-2.83
PRAMEF8	-0.24	-0.01	-0.06	-0.65
